Experimental data from the supplement of paper PMC9931576.
Human monoclonal antibodies against the spike receptor-binding domain (heavy:light variable regions). IC50 against pseudoviruses bearing the spike of naturally observed variants; lower = stronger; >10 µg/ml means not reached at the top dose. No active / inactive call. The stated detection limit is 0.0005 µg/ml; values near or below 0.001 µg/ml lie at the floor of the assay.

B1: BD55-3152 (protein)
chain 1: QVQLVQSGAEVKKPGASVIVSCKASGYRFISHYIHWVRQAPGQGLEWMGKIDPSGRGTTYAQKLQGRVSVTRDTSTSSVYMALSGLRSDDTAVYYCARDRFPLSDPYVWGSPLGGLDVWGQGTTVIVSS
chain 2: SYDLTQPPSVSVSPGQTARITCSGDALPSQYVYWYQQRPGQAPVLVMYKDSERPPGIPERFSGSTSGTTATLTITGVQAEDEADYYCQSADASTTYHVFGGGTKVTVV
B2: BG1-24 (protein)
chain 1: QVQLVQSGAEVKKPGSSVKVSCKASGGTFSSYAISWVRQAPGQGLEWMGRIISMFGIANNAQKFQGRLTITADTSTSTAYMELSSLRSEDTAVYYCARGPYYYDSGGYYLDYWGQGTLVTVSS
chain 2: EIVLTQSPGTLSLSPGERATLSCRASQSVGSGYLAWYQQRPGQAPRLLIYGASSRATGIPDRFSGSGSGTDFTLTISRLEPEDFAVYYCQQYAGSPRTFGQGTRLEIK
B3: BD55-3151 (protein)
chain 1: VELVESGGGLVQPGGSLRLSCAASGFSFPNFWMHWVRQAPGKGLVWVSRIKSDGTATIYADSVKGRFSISRDNARNMLFLEMNSLKDDDTAVYYCVRDRGYYDISGNYYSAWFDPWGQGTQVTVAS
chain 2: SYFLTQPPSVSVAPGQTATITCEGNNIGDNSVHWYQQRPGQAPVVLLSDVRGRPSGIPGRISGSNSGNTATLTIARVAAGDEADYYCQVWDTTTDHPGGVFGGGTKLTVL
B4: BD55-3372 (protein)
chain 1: EVHLVESGGGLVKPGGSLRLSCAASGFTFSNYAMNWVRQAPGKGLQWVSSITGSSSFIFYADSVKGRFTIVRDNAQNSLYLQMNSLRDEDTAVYYCARERDDYDTRLDWGQGTLVTVSS
chain 2: QPMLTQPPSVSGAPGQTVTISCVGSSSNIGAGYEVHWYQQLPGTAPKRLLSGNSDRPSGVPDRFSGSKSGTSASLAITGLQADDEADYYCQSYDSSLSLSAVVFGGGTKLTVL
B5: BD55-2413 (protein)
chain 1: EVQLVQSGAEVKKPGESLKISCQGSGYNFANYWIGWVRQMPGKGLEWMGIIYPDDSDTRYSPTFRGQVTISADKSISTAYLQWSSLKASDTAMYYCARRGWDGYTSGTHYIGPVDYWGQGTLATVSS
chain 2: QSALTQPASVSGSPGQSITISCTGTSSDVGGYNFVSWYQHHPGKAPKLMIYDVTTRPSGISTRFSGSKSGNTASLTISGLQAEDEADYYCGSYTSSSILGVFGGGTKLTVL
B6: 7D6 (protein)
chain 1: EVQLQQSGAELVRPGASVKLSCTASGFNIKDTYIHWVKQRPEQGLEWIGRIDPGDGDTEYDPSFQGKATITADTSSNTAYLELSSLTSEDTAVYYCTRFYDYVNYGMDYWGQGTSVTVSS
chain 2: DIQMTQSPASLSASVGETVTITCRASGNIHNYLAWYQQKQGKSPQLLVYNAKTLADGVPSRFSGSGSGTQYSLKINSLQPEDFGSYYCQHFWSTPPWTFGGGTKLEVK

Columns and labels:
Test in all cases: pseudovirus neutralization IC50; higher = weaker neutralization
[1] = molecular target: SARS-CoV-2 Omicron BA.1 spike pseudovirus
Protocol: (§1)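 Single-round VSV luciferase pseudovirus mixed with antibody dilutions for 1 h and put on Huh-7 cells for about a day; IC50 from the dose curve.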

[2] = molecular target: SARS-CoV-2 Omicron BA.2 spike pseudovirus
Protocol: as §1

[3] = molecular target: SARS-CoV-2 Omicron BA.2.75 spike pseudovirus
Protocol: as §1

[4] = molecular target: SARS-CoV-2 Omicron BA.5 spike pseudovirus
Protocol: as §1

[5] = molecular target: SARS-CoV-2 Omicron BQ.1.1 spike pseudovirus
Protocol: as §1

[6] = molecular target: SARS-CoV-2 Omicron XBB spike pseudovirus
Protocol: as §1

[7] = molecular target: SARS-CoV-2 early D614G spike pseudovirus
Protocol: as §1

Row | Binder | pseudovirus neutralization IC50 [1] [µg/mL] | pseudovirus neutralization IC50 [2] [µg/mL] | pseudovirus neutralization IC50 [3] [µg/mL] | pseudovirus neutralization IC50 [4] [µg/mL] | pseudovirus neutralization IC50 [5] [µg/mL] | pseudovirus neutralization IC50 [6] [µg/mL] | pseudovirus neutralization IC50 [7] [µg/mL]
1 | B1 | 0.253 | 0.179 | 0.103 | 0.565 | > 10 | > 10 | 0.0105
2 | B2 | > 10 | > 10 | > 10 | > 10 | > 10 | > 10 | 0.001
3 | B3 | > 10 | > 10 | > 10 | > 10 | > 10 | > 10 | > 10
4 | B4 | 0.0203 | 0.0322 | 0.0321 | 0.0148 | 0.0231 | 0.012 | 0.0068
5 | B5 | > 10 | > 10 | > 10 | > 10 | > 10 | > 10 | > 10
6 | B6 | > 10 | > 10 | > 10 | > 10 | > 10 | > 10 | > 10
